Experimental data from PMC4101495, “Prion Fragment Peptides Are Digested with Membrane Type Matrix Metalloproteinases and Acquire Enzyme Resistance through Cu^2+-Binding” (2014).

By UniProt entry, the sequences of proteins in these tests, tags left out. Residues count along the entry.
UniProt P51512, 29-345 limits assumed: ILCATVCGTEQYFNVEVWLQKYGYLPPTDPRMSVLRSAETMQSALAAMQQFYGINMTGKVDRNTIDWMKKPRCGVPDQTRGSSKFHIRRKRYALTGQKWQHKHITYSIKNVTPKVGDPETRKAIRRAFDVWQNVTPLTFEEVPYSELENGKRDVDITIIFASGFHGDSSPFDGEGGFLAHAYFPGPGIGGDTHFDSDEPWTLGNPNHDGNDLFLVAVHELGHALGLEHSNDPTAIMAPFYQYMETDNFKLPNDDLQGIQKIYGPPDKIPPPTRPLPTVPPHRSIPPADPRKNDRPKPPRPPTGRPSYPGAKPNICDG
UniProt P09237, 18-267 limits assumed: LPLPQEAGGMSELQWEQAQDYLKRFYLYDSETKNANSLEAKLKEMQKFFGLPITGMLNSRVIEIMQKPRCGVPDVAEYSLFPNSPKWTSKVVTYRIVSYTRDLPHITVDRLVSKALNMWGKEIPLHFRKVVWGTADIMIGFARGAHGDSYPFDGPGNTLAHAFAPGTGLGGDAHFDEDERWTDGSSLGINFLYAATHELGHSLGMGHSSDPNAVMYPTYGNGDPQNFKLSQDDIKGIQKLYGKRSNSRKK

Key:
recombinant MT1-MMP = recombinant MT1-MMP (Homo sapiens, UniProt P50281); assay: Digestion of hPrP fragment peptides by recombinant MT1-MMP, with or without Cu^2+; settings: peptide 0.1 mM, 37 °C, 1 day; for digestion (cleavage) by MT1-MMP / cleavage site by MT1-MMP: absence of Cu^2+; for digestion (cleavage) by MT1-MMP: 50 mM Tris-HCl pH 7.5, 150 mM NaCl, 10 mM CaCl2, 5 mM ZnCl2, 0.005% Briji 35, 3 mM NaN3; for digestion (cleavage) by MT1-MMP / effect of Cu^2+ on cleavage by MT1-MMP: HPLC-UV, LC-ESI-MS; for effect of Cu^2+ on cleavage by MT1-MMP: presence of Cu^2+ (two equivalents per His residue, final 0 to 0.8 mM); for effect of Cu^2+ on cleavage by MT1-MMP / cleavage site by MT1-MMP: Tris-HCl pH 7.5; for cleavage site by MT1-MMP: ESI-MS and LC-ESI-MS
recombinant MT3-MMP = recombinant MT3-MMP (Homo sapiens, UniProt P51512); assay: Digestion of hPrP fragment peptides by recombinant MT3-MMP, with or without Cu^2+; settings: peptide 0.1 mM, 37 °C, 1 day, LC-ESI-MS; for digestion (cleavage) by MT3-MMP: 50 mM Tris-HCl pH 7.5, 150 mM NaCl, 10 mM CaCl2, 5 mM ZnCl2, 0.005% Briji 35, 3 mM NaN3
[1] = Digestion of hPrP fragment peptides by human serum (control); settings: peptide 0.1 mM, 37 °C, 1 day, Tris-HCl pH 7.5 assay buffer, HPLC-UV, LC-ESI-MS
Recombinant MMP-7 = Recombinant MMP-7 (Homo sapiens, UniProt P09237); assay: Digestion of hPrP fragment peptides by recombinant MMP-7 (control), with or without Cu^2+; settings: peptide 0.1 mM, 37 °C, 1 day, LC-ESI-MS; for digestion (cleavage) by MMP-7: 50 mM Tris-HCl pH 7.5, 150 mM NaCl, 10 mM CaCl2, 5 mM ZnCl2, 0.005% Briji 35, 3 mM NaN3
[2] = presence of Cu^2+ (two equivalents per His residue, final 0 to 0.8 mM), Tris-HCl pH 7.5, HPLC-UV
[3] = absence of Cu^2+, Tris-HCl pH 7.5

Structure (SMILES) | digestion (cleavage) by MT1-MMP (recombinant MT1-MMP) | effect of Cu^2+ on cleavage by MT1-MMP (recombinant MT1-MMP) | digestion (cleavage) by MT3-MMP (recombinant MT3-MMP; absence of Cu^2+, HPLC-UV) | digestion (cleavage) by human serum (HS) [1] | digestion (cleavage) by MMP-7 (Recombinant MMP-7; absence of Cu^2+, HPLC-UV) | further results
CC[C@H](C)[C@H](N)C(=O)N[C@H](C(=O)N[C@@H](CCC(N)=O)C(=O)N[C@@H](Cc1ccc(O)cc1)C(=O)N[C@@H](CCC(=O)O)C(=O)N[C@@H](CCCNC(=N)N)C(=O)N[C@@H](CCC(=O)O)C(=O)N[C@@H](CO)C(=O)N[C@@H](CCC(N)=O)C(=O)N[C@@H](C)C(=O)N[C@@H](Cc1ccc(O)cc1)C(=O)N[C@@H](Cc1ccc(O)cc1)C(=O)N[C@@H](CCC(N)=O)C(=O)N[C@@H](CCCNC(=N)N)C(=O)NCC(=O)N[C@@H](CO)C(=O)O)[C@@H](C)O | cleaved | inhibited | cleaved | – | – | effect of Cu^2+ on cleavage by MT3-MMP (recombinant MT3-MMP; [2]): not inhibited
CC[C@H](C)[C@H](NC(=O)[C@@H](NC(=O)[C@@H]1CCCN1C(=O)[C@H](CCCNC(=N)N)NC(=O)[C@H](CO)NC(=O)[C@H](CCSC)NC(=O)[C@H](C)NC(=O)[C@@H](N)CO)[C@@H](C)CC)C(=O)N[C@@H](Cc1c[nH]cn1)C(=O)N[C@@H](Cc1ccccc1)C(=O)NCC(=O)N[C@@H](CO)C(=O)N[C@@H](CC(=O)O)C(=O)O | – | – | – | digested | – | –
CC[C@H](C)[C@H](NC(=O)[C@H](CS)NC(=O)[C@H](CCSC)NC(=O)[C@H](CCC(N)=O)NC(=O)[C@H](CCC(=O)O)NC(=O)[C@@H](NC(=O)[C@@H](NC(=O)[C@H](CCCNC(=N)N)NC(=O)[C@H](CCC(=O)O)NC(=O)[C@H](CCSC)NC(=O)[C@H](CCSC)NC(=O)[C@H](CCCCN)NC(=O)[C@@H](NC(=O)[C@H](CC(=O)O)NC(=O)[C@@H](NC(=O)[C@H](CCC(=O)O)NC(=O)[C@@H](NC(=O)[C@H](Cc1ccccc1)NC(=O)[C@H](CC(N)=O)NC(=O)[C@H](CCC(=O)O)NC(=O)CNC(=O)[C@H](CCCCN)NC(=O)[C@@H](N)[C@@H](C)O)[C@@H](C)O)[C@@H](C)O)C(C)C)C(C)C)C(C)C)C(=O)N[C@H](C(=O)N[C@@H](CCC(N)=O)C(=O)N[C@@H](Cc1ccc(O)cc1)C(=O)N[C@@H](CCC(=O)O)C(=O)N[C@@H](CCCNC(=N)N)C(=O)N[C@@H](CCC(=O)O)C(=O)N[C@@H](CO)C(=O)N[C@@H](CCC(N)=O)C(=O)N[C@@H](C)C(=O)N[C@@H](Cc1ccc(O)cc1)C(=O)N[C@@H](Cc1ccc(O)cc1)C(=O)N[C@@H](CCC(N)=O)C(=O)N[C@@H](CCCNC(=N)N)C(=O)NCC(=O)N[C@@H](CO)C(=O)O)[C@@H](C)O | cleaved | not inhibited | – | – | cleaved | cleavage site by MT1-MMP (recombinant MT1-MMP): ^224Ala–^225Tyr; cleavage site by MMP-7 (Recombinant MMP-7; [3]): ^214Cys–^215Ile; effect of Cu^2+ on cleavage by MMP-7 (Recombinant MMP-7; [2]): inhibited
CSCC[C@H](NC(=O)[C@H](CC(N)=O)NC(=O)[C@H](CCC(=O)O)NC(=O)[C@H](CCCNC(=N)N)NC(=O)[C@@H](N)Cc1ccc(O)cc1)C(=O)N[C@@H](Cc1c[nH]cn1)C(=O)N[C@@H](CCCNC(=N)N)C(=O)N[C@@H](Cc1ccc(O)cc1)C(=O)N1CCC[C@H]1C(=O)N[C@@H](CC(N)=O)C(=O)O | – | – | not with MT3-MMP | digested | digested | –
CC[C@H](C)[C@H](NC(=O)[C@@H](NC(=O)[C@@H]1CCCN1C(=O)[C@H](CCCNC(=N)N)NC(=O)[C@H](CO)NC(=O)[C@H](CCSC)NC(=O)[C@H](C)NC(=O)[C@H](CO)NC(=O)CNC(=O)[C@H](CC(C)C)NC(=O)[C@H](CCSC)NC(=O)[C@H](Cc1ccc(O)cc1)NC(=O)CNC(=O)CNC(=O)[C@H](CC(C)C)NC(=O)CNC(=O)CNC(=O)[C@@H](NC(=O)[C@@H](NC(=O)[C@H](C)NC(=O)CN)C(C)C)C(C)C)[C@@H](C)CC)C(=O)N[C@@H](Cc1c[nH]cn1)C(=O)N[C@@H](Cc1ccccc1)C(=O)NCC(=O)N[C@@H](CO)C(=O)N[C@@H](CC(=O)O)C(=O)N[C@@H](Cc1ccc(O)cc1)C(=O)N[C@@H](CCC(=O)O)C(=O)N[C@@H](CC(=O)O)C(=O)N[C@@H](CCCNC(=N)N)C(=O)N[C@@H](Cc1ccc(O)cc1)C(=O)N[C@@H](Cc1ccc(O)cc1)C(=O)N[C@@H](CCCNC(=N)N)C(=O)N[C@@H](CCC(=O)O)C(=O)N[C@@H](CC(N)=O)C(=O)N[C@@H](CCSC)C(=O)N[C@@H](Cc1c[nH]cn1)C(=O)N[C@@H](CCCNC(=N)N)C(=O)N[C@@H](Cc1ccc(O)cc1)C(=O)N1CCC[C@H]1C(=O)N[C@@H](CC(N)=O)C(=O)N[C@@H](CCC(N)=O)C(=O)N[C@H](C(=O)N[C@@H](Cc1ccc(O)cc1)C(=O)N[C@@H](Cc1ccc(O)cc1)C(=O)N[C@@H](CCCNC(=N)N)C(=O)N1CCC[C@H]1C(=O)N[C@@H](CCSC)C(=O)N[C@@H](CC(=O)O)C(=O)N[C@@H](CCC(=O)O)C(=O)O)C(C)C | digested | partially inhibited | – | – | – | cleavage site by MT1-MMP (recombinant MT1-MMP): ^127Gly-Tyr^128; also recorded: ^137Pro-Ile^138
C[C@@H](O)[C@H](NC(=O)CNC(=O)CNC(=O)CN)C(=O)N[C@@H](Cc1c[nH]cn1)C(=O)N[C@@H](CO)C(=O)N[C@@H](CCC(N)=O)C(=O)N[C@@H](Cc1c[nH]c2ccccc12)C(=O)N[C@@H](CC(N)=O)C(=O)N[C@@H](CCCCN)C(=O)N1CCC[C@H]1C(=O)N[C@@H](CO)C(=O)N[C@@H](CCCCN)C(=O)N1CCC[C@H]1C(=O)N[C@@H](CCCCN)C(=O)O | not digested | – | not digested | not digested | not digested | –
CSCC[C@H](NC(=O)[C@H](Cc1c[nH]cn1)NC(=O)[C@H](CCCCN)NC(=O)[C@H](CCSC)NC(=O)[C@H](CC(N)=O)NC(=O)[C@@H](N)[C@@H](C)O)C(=O)N[C@@H](C)C(=O)NCC(=O)N[C@@H](C)C(=O)N[C@@H](C)C(=O)N[C@@H](C)C(=O)N[C@@H](C)C(=O)NCC(=O)O | – | – | – | – | – | number of cleavage sites identified by MT3-MMP (recombinant MT3-MMP; [3]): one
CSCC[C@H](NC(=O)[C@H](CC(N)=O)NC(=O)[C@H](CCC(=O)O)NC(=O)[C@H](CCCNC(=N)N)NC(=O)[C@H](Cc1ccc(O)cc1)NC(=O)[C@H](Cc1ccc(O)cc1)NC(=O)[C@@H](N)CCCNC(=N)N)C(=O)N[C@@H](Cc1c[nH]cn1)C(=O)N[C@@H](CCCNC(=N)N)C(=O)N[C@@H](Cc1ccc(O)cc1)C(=O)N1CCC[C@H]1C(=O)N[C@@H](CC(N)=O)C(=O)N[C@@H](CCC(N)=O)C(=O)N[C@H](C(=O)N[C@@H](Cc1ccc(O)cc1)C(=O)N[C@@H](Cc1ccc(O)cc1)C(=O)N[C@@H](CCCNC(=N)N)C(=O)N1CCC[C@H]1C(=O)N[C@@H](CCSC)C(=O)N[C@@H](CC(=O)O)C(=O)N[C@@H](CCC(=O)O)C(=O)O)C(C)C | digested | – | digested | not with MMP-7 and HS | not with MMP-7 | –

Entries after “also recorded” stand apart in the source; their conditions may differ.
